Assays:
[1] = tested on: Sclerotinia sclerotiorum; experiment: Preventative fungicidal control of white mold on soybeans caused by Sclerotinia sclerotiorum (greenhouse); details: 250 ppm, inoculated next day, 6 days, untreated 100% infected
[2] = tested on: Botrytis cinerea; experiment: Preventative fungicidal control of Botrytis cinerea on leaves of green pepper (greenhouse); details: 250 ppm, inoculated next day, assessed after 5 days, untreated 90% infected
[3] = tested on: Sclerotinia sclerotiorum; experiment: Preventative fungicidal control of white mold on oilseed rape caused by Sclerotinia sclerotiorum (greenhouse); details: 100 g/ha, 14 days, untreated 100% infected
[4] = tested on: Botrytis cinerea; experiment: Long lasting control of Botrytis cinerea on leaves of green pepper (greenhouse); details: 63 ppm, inoculated 7 days after spraying, assessed after 5 days, untreated 90% infected

Row | Compound | growth of the pathogen (% diseased leaf area) [1] | growth of the pathogen (% diseased leaf area) [2] | growth of the pathogen (% diseased leaf area) [3] | growth of the pathogen (% diseased leaf area) [4]
1 | Cc1cc(C2=N[C@@H](C)[C@@H](C)N(C)c3c(F)cccc32)cnc1C(F)F (racemic) | at most 14% | at most 13% | at most 2% | –
2 | Cc1cc(C2=N[C@@H](C)[C@H](C)N(C)c3c(F)cccc32)cnc1C(F)F (racemic) | at most 14% | at most 13% | at most 2% | –
3 | Cc1cc(C2=NC3(CC3)CN(C)c3c(F)cccc32)cnc1C(F)F | at most 14% | at most 13% | at most 2% | –
4 | Cc1cc(C2=NCCN(C)c3c(F)cccc32)cnc1C(F)F | at most 14% | – | – | –
5 | CCCN1C(=O)C(C)(C)N=C(c2cnc(C(F)F)c(C)c2)c2cccc(F)c21 | – | at most 13% | – | at most 17%
6 | Cc1cc(C2=NC(C)(C)C(=O)N(C)c3c(F)cccc32)cnc1C(F)F | – | at most 13% | – | at most 17%
7 | Cc1cc(C2=NC(=O)C(C)(C)N(Cc3ccccc3)c3ccccc32)cnc1C(F)F | – | – | at most 2% | –
